The subject of the data set is HIV-1. The following applies: CC50/IC50; Table 2. As to the method:
The potency of compounds of Formula I was evaluated via single round and multicycle HIV-1 replication assays. The single round assay is used as the first level of potency testing. […] The multicycle HIV-1 replication assay uses primary isolates and primary human peripheral blood mononuclear cells (PBMCs). Toxicity is evaluated simultaneously with the cells utilized in each assay to allow determination of the therapeutic index (TI=CC50/IC50) of each compound. HIV-1 replication assays are performed in primary PBMCs such as described in Kortager, et al., 2012, J Virol. 86(16):8472-8481, Zentner, et al., 2013, ChemMedChem. 8(3):426-432 and Zentner, et al., 2013, Bioorg Med Chem Lett. 2013; 23(4): 1132-1135.
On to `CN(C(=O)C(Cc1ccccc1)NC(=O)Cc1n[nH]c2c(N)cccc12)c1ccccc1` (stereo not shown) [Compound C4], for which the Therapeutic index was determined as 5515.

Regarding `CN(C(=O)C(Cc1ccccc1)NC(=O)Cc1n[nH]c2c(N)cccc12)c1ccc2[nH]ncc2c1` (stereo not shown) [Compound C12], the Therapeutic index stood at 606.

`Cc1[nH]c2ccccc2c1CC(=O)N[C@@H](Cc1ccccc1)C(=O)N(C)c1ccccc1` [PF-74, reference compound] gave a Therapeutic index of 768.

For `Cc1[nH]c2ccccc2c1CC(=O)NC(Cc1ccccc1)C(=O)N(C)c1ccc2[nH]ncc2c1` (stereo not shown) [Compound C11], the Therapeutic index was 2115.

The values above are taken from patent US20210115061A1, “Small-Molecule HIV-1 Capsid Protein Inhibitors and Methods Using Same” (DREXEL UNIVERSITY, priority 2018, published 2021).
